Anti-infective test results gathered from many reports (values: NIAID ChemDB through PubChem).

All rows: host cell toxicity; measure: CC50

Blank or dashed fields: not listed here.

structure,cells,read by,value
O=C(N/N=C/c1ccc(Cn2cccn2)cc1)Nc1cccc2nsnc12,Cf2Th-CD4/CCR5,luminescence,37.3 µM
CC(C)N(Cc1ccccc1OCC(=O)O)C(=O)c1ccc(-c2ccc3c(c2)OCO3)cc1,KEP293,,>20 µM
COc1c2c(c(OC)c3ccccc13)CN(c1ccc(C)cc1Br)C(=N)C2,J774A.1 macrophages,neutral red,23.45 µM
[N-]=[N+]=NC1C[C@H](n2cnc3c(=O)n4cc(-c5ccccc5)[nH]c4nc32)O[C@@H]1CO,PBM,,69.6 µM
O=c1cnn([C@@H]2O[C@H](CO)[C@@H](O)[C@H]2O)c(=O)[nH]1,VERO 76,MTT / crystal violet,>100 µg/mL
N[C@@H](Cc1cnc[nH]1)C(=O)NCCNc1c2ccccc2nc2ccccc12,KB cells,MTS,<10 µM
Cc1ccc(O)c(C(=O)N[C@@H]2CCC34CCC3N(C(C)C)C4C2)c1,MDCK,,100 µg/mL
CCOC(=O)CCCCOc1ccccc1C=O,HEK 293,,>20 µM
CCOC(=O)c1cccc(N2Cc3c(c(OC)c4ccccc4c3OC)CC2=N)c1,J774A.1 macrophages,neutral red,98.25 µM
O=C1NC[C@H](c2ccccc2)Nc2c1c(=O)n(O)c1ncccc21,HeLa,,<100 µM
O=C(N[C@@H]1CCC23CCC2N(Cc2ccccc2)C3C1)c1cc(Cl)ccc1O,MDCK,,100 µg/mL
CC(C)N(Cc1cccc(OCCCCCC(=O)OC(=O)O)c1)C(=O)c1ccc(-c2cccc(NC=O)c2)cc1,RAJI,,>20 µM
COc1ccc(/C=N/NC(=O)Nc2cccc3nsnc23)cc1,Cf2Th-CD4/CCR5,luminescence,>112 µM
COc1cccc2ccc(N3CCC(c4nc(-c5ccc(NCCO)nc5)no4)CC3)nc12,HepH2,MTS,>100 µM
O=c1cc(N2CCc3ccc(-c4cccc(F)c4)cc3C2)c2cccnc2n1O,HeLa,,<100 µM
CCN(CC)c1ccc(-c2cn3c(=O)c4ncn([C@H]5CO[C@@H](CO)O5)c4nc3[nH]2)cc1,PBM,,>100 µM
COc1ccc2nc3cc(Cl)ccc3c(NCCNC(=O)[C@@H]3CCCN3)c2c1,KB cells,MTS,0.455 µM
CCOC(=O)c1c(O)c2cc(C(=O)N3CCCCC3CCc3ccccc3)cnc2n(O)c1=O,HeLa,,<100 µM
O=C(N/N=C/c1ccc(O)cc1)Nc1cccc2nsnc12,Cf2Th-CD4/CCR5,luminescence,56.5 µM
O=c1cc(NC(CN2CCOCC2)c2ccccc2)c2cccnc2n1O,HeLa,,<100 µM
COc1c2c(c(OC)c3ccccc13)CN(c1ccccc1Cl)C(=N)C2,J774A.1 macrophages,neutral red,21.14 µM
C[C@@]1(O)[C@H](O)[C@@H](CO)O[C@H]1n1cnc2c(=O)[nH]c(N)nc21,BHK-21,MTT / crystal violet,>100 µg/mL
CCc1ncn(-c2ncc(OC)c3c(C(=O)C(=O)N4CCN(C(=O)c5ccccc5)[C@H](C)C4)c[nH]c23)n1,HeLa,trypan blue,>100 µM
CC(C)N(Cc1cccc(OCCCCCC(=O)OC(=O)O)c1)C(=O)c1ccc(-c2cc3ccccc3n2S(=O)(=O)c2ccccc2)cc1,BJ,,>20 µM
Nc1ccc(-c2n[nH]c(=O)n2-c2ccccc2)cc1,P-388,,>5 µg/mL
NC1(c2cccc(-c3ccc(-c4cc(=O)n(O)c5ncccc45)cc3)c2)CC1,HeLa,,<100 µM
CCOC(=O)CCCCCOc1cccc(CN(C(=O)c2ccc(-c3ccc4c(c3)OCO4)cc2)C(C)C)c1,RAJI,,>20 µM
Nc1ccc(Cc2ccc(-c3cc(=O)n(O)c4ncccc34)cc2)cc1,HeLa,,<100 µM
C/C(=N\NC(=O)c1ccc(Cl)cc1)c1cccc(/C(C)=N/NC(=O)c2ccc(Cl)cc2)n1,HL-60,MTT,1.78 µM
O=C(NCCN1CCC[C@@H]2CCCC[C@@H]21)c1cc(Cl)ccc1O,MDCK,,43 µg/mL
CCOC(=O)c1c(O)c2cc(-c3ccccc3)cnc2n(O)c1=O,HeLa,,<100 µM
COC(=O)[C@H](C)NP(=O)(OCC1C/C1=C/n1cnc2c(N)ncnc21)Oc1ccccc1,BSC-1,,0.5 µM
CN1C2CCC23CC[C@@H](NC(=O)c2cc(Cl)ccc2O)CC13,MDCK,,100 µg/mL
CCCCCCCCCCCCCCCCCCOP(=O)(O)OC[C@H]1O[C@@H](N2CCc3c(-c4ccccc4)ncnc32)[C@@H](O)C1O,Human fibroblasts MRC-5,MTT,>50 µM
O=C(NCCNc1c2ccccc2nc2ccccc12)[C@@H]1CCCN1,KB cells,MTS,2.32 µM
CC1(C)CCC[C@]2(C)[C@H]3C[C@@H](C4=CCOC4=O)CC3=CC[C@@H]12,HT-29,absorbance,42 µM
O=C(N/N=C/c1ccc(O)c([N+](=O)[O-])c1)Nc1cccc2nsnc12,Cf2Th-CD4/CCR5,luminescence,>112 µM
COc1ccc2nc3cc(Cl)ccc3c(NCCNC(=O)[C@@H](N)Cc3cnc[nH]3)c2c1,KB cells,MTS,3.94 µM
CN1C=CN(c2cccc(N3C=CN(C)C3)n2)C1.[Cl][Au].[Cl][Au],HT-29,sulforhodamine / absorbance,>30 µM
N=c1cc2c(cn1-c1ccccc1)C(=O)c1ccccc1C2=O,J774A.1 macrophages,neutral red,31.25 µM
CC1=CC2c3c(cc4oc(-c5cc(O)cc(O)c5)cc4c3C)O[C@@]3(c4ccc(O)cc4O)Oc4cc(O)ccc4[C@H](C1)C23,HepG2.2.5 cells,MTT,6.79 µM
Nc1nc2c(ncn2[C@@H]2C=C[C@H](CO)C2)c(=O)[nH]1,PBM,,7 µM
N=c1cc2c(cn1-c1ccccc1Cl)C(=O)c1ccccc1C2=O,J774A.1 macrophages,neutral red,29.12 µM
COc1cc(C)ccc1OCCOc1ccccc1F,HEK 293,,>20 µM
COc1cnc(-n2cnc(C)n2)c2[nH]cc(C(=O)C(=O)N3CCN(C(=O)c4ccccc4)[C@@H](C)C3)c12,HeLa,trypan blue,>100 µM
COc1c(C)c2c(c(O)c1CC(=O)O)C(=O)OC2,VERO 76,MTT / crystal violet,>12.5 µg/mL
COc1cnc(-c2ncon2)c2[nH]cc(C(=O)C(=O)N3CCN(C(=O)c4ccccc4)CC3)c12,HeLa,trypan blue,>100 µM
O=c1cc(N2CCc3ccc(-c4cccnc4)cc3C2)c2cccnc2n1O,HeLa,,0.17 µM
C#Cc1cn([C@@H]2O[C@H](CO)[C@@H](O)[C@@]2(C)O)c2ncnc(N)c12,ET,,>50 µM
CCOC(=O)c1ccc(N2Cc3c(c(OC)c4ccccc4c3OC)CC2=N)cc1,J774A.1 macrophages,neutral red,124 µM
CCC#Cc1cn([C@@H]2O[C@H](CO)[C@@H](O)[C@@]2(C)O)c2ncnc(N)c12,ET,,>50 µM
Cc1ccc(S(=O)(=O)NC(N)=NCCC[C@H](NC(=O)OCc2cccnc2)C(=O)N[C@H](C(=O)N[C@H](C=O)Cc2ccccc2)C(C)(C)C)cc1,HELF,,36 µM
COc1cnc(-c2n[nH]c(C)n2)c2[nH]cc(C(=O)C(=O)N3CCN(C(=O)c4ccccc4)[C@H](C)C3)c12,HeLa,trypan blue,>100 µM
C[C@H](NC(=O)CCC(CCC(=O)N[C@@H](C)C(=O)O)(CCC(=O)N[C@@H](C)C(=O)O)NC(=O)CCOCC(COCCC(=O)NC(CCC(=O)N[C@@H](C)C(=O)O)(CCC(=O)N[C@@H](C)C(=O)O)CCC(=O)N[C@H](C)C(=O)O)(COCCC(=O)NC(CCC(=O)N[C@@H](C)C(=O)O)(CCC(=O)N[C@H](C)C(=O)O)CCC(=O)N[C@H](C)C(=O)O)COCCC(=O)NC(CCC(=O)N[C@@H](C)C(=O)O)(CCC(=O)N[C@H](C)C(=O)O)CCC(=O)N[C@H](C)C(=O)O)C(=O)O,CD4+ T-cell,MTS,>100 µM
Cc1ccc(O)c(C(=O)NCCN2[C@H](C)CCC[C@@H]2C)c1,MDCK,,>100 µg/mL
COc1ccc(/C=N/NC(=O)Nc2cccc3nsnc23)cc1OC,Cf2Th-CD4/CCR5,luminescence,25.9 µM
Cc1ccc(-n2cc3c(cc2=N)C(=O)c2ccccc2C3=O)c(Br)c1,J774A.1 macrophages,neutral red,11.25 µM

5 of the rows above, restated:

structure | cells | read by | value
COc1c(C)c2c(c(O)c1CC(=O)O)C(=O)OC2 | VERO 76 | MTT / crystal violet | >12.5 µg/mL
COc1cnc(-n2cnc(C)n2)c2[nH]cc(C(=O)C(=O)N3CCN(C(=O)c4ccccc4)[C@@H](C)C3)c12 | HeLa | trypan blue | >100 µM
Cc1ccc(-n2cc3c(cc2=N)C(=O)c2ccccc2C3=O)c(Br)c1 | J774A.1 macrophages | neutral red | 11.25 µM
CCOC(=O)c1cccc(N2Cc3c(c(OC)c4ccccc4c3OC)CC2=N)c1 | J774A.1 macrophages | neutral red | 98.25 µM
O=C(N/N=C/c1ccc(Cn2cccn2)cc1)Nc1cccc2nsnc12 | Cf2Th-CD4/CCR5 | luminescence | 37.3 µM

CCn is the concentration with n% toxicity to the cells. Rows are shuffled and stem from different studies.